Results of unrelated studies side by side (data: NIAID ChemDB).

Common to all: growth or infection tests; species: HIV-1; endpoint: EC50

Blank or dashed fields: not listed here.

| structure | strain | changes | cell line | method | setting | result |
|---|---|---|---|---|---|---|
| Cc1cn([C@H]2C[C@H](N=[N+]=[N-])[C@@H](COP(=O)(OCc3ccccc3)OCc3ccccc3)O2)c(=O)[nH]c1=O |  |  | CEM + CEM TK- |  |  | >100 µM |
| CC(CO)[C@@H](C)C1OC1[C@@H](C)[C@H]1CCC2=C3C(CC[C@@]21C)[C@@]1(C)CC[C@H](O[C@H]2O[C@H](CO)[C@@H](O)[C@H](O)[C@H]2O)C[C@]1(O)[C@@H](O)[C@H]3O |  |  | SupT1 | luciferase | pseudotyped | 41.6 µM |
| CC[C@H](C)[C@H](NC(=O)[C@@H]1CCCN1C[C@@H](O)[C@H](Cc1ccccc1)NC(=O)[C@H](CC(N)=O)NC(=O)[C@H](CC(C)C)NC(C)=O)C(=O)N[C@H](C(N)=O)C(C)C | TC354 |  | CBMC(PHA) + CBMC | RT activity | 4 d | >10 µM |
| Cc1ccc2c(-n3c(C)nnc3SCC(=O)Nc3ccccc3Br)ccc(C)c2c1 |  | Y188L | HeLa |  |  | 0.151 µM |
| CN1Cc2c(c3c4ccccc4n(C)c3c3c2c2ccccc2n3CCC#N)C1=O |  |  | U1/HIV-1(PMA) + U1 | p24 |  | >>1 µM |
| CCOC(=O)c1[nH]c2ccc(Cl)cc2c1C1(C)CC1 |  |  | 293T | luciferase |  | 2.25 µM |
| Nc1nc(=O)n([C@@H]2CS[C@H](CO)O2)cc1F | LAI | E138R | TZM-bl |  |  | 1.3 µM |
| Cc1ccc(C(=O)OC[C@H]2O[C@H](n3cc(-c4ccc(-c5ccccc5)s4)c(N)nc3=O)C[C@@H]2OC(=O)c2ccc(C)cc2)cc1 | IIIB |  | H9 | RT activity |  | >10 µg/mL |
| C1CNCCNCCCN(CCCN2CCCNCCNCCCNCC2)CCNC1 | 168.10 |  | SupT1 + Sup-T1 | cytopathic effect / MTT |  | 0.2 µg/mL |
| CCC1=C(CC)c2cc3[n-]c(cc4[n-]c(cc5nc(cc1n2)C(CC)=C5CC)c(CC)c4CC)c(CC)c3CC.[O]=[V+2] | BaL |  | HUT/CCR5 + HUT | p24 | 7 d | >5 µM |
| CCc1nc2ccccn2c1C(=O)c1ccco1 |  |  | U1 | RT activity |  | >100 µM |
| Cc1cn([C@H]2C[C@H](N=[N+]=[N-])[C@@H](COC(=O)OCCCCCCOC3O[C@H](CO)[C@@H](O)[C@H](O)[C@@H]3O)O2)c(=O)[nH]c1=O |  |  | CEM-113 + CEM/C113 | RT activity |  | >20 µg/mL |
| O=C(O)P(=O)(O)O | LAI viral clone (RT-W88S) | RT-W88S | HT4LACZ-1 + HT4 LacZ-1 | syncytia |  | 105 µM |
| O=S(=O)([O-])[O-].[O]=[V+2] | BaL |  | HUT/CCR5 + HUT | p24 | 7 d | >5 µM |
| Nc1nc(=O)n([C@@H]2CO[C@H](CO)S2)cc1F | HXB2D (RT-M184V) | RT-M184V | CBMC | RT activity |  | 9 µM |
| CCC[C@@H](c1ccc(C(F)(F)F)cc1)N1CCN(C2(C)CCN(C(=O)c3c(C)ncnc3C)CC2)C[C@@H]1C | YU-2 Clinical isolates |  | U-80 | entry |  | 0.00035 µM |
| CC1(C)C2=CC(=O)C(O)(c3ccccc3)C(=O)N2c2ccc(Cl)cc21 | CCS |  | PBMC/1(CCS) + PBMC | p24 |  | 0.07 µM |
| Nc1nc2c(ncn2C/C=C/CO)c(=O)[nH]1 | IIIB |  | ATH8 | cytopathic effect / trypan blue |  | >500 µM |
| Cc1ccnc2c1NC(=O)c1cccnc1N2C1CC1 | IIIB | DB-R | C8166 | p24 / ELISA |  | >400 µM |
| C/C=C/C=C/C(=O)C1=C[C@@]2(C)C3\C(=C(O)/C=C/C=C/C)C(O)=C(C)C(=O)[C@@]3(C)O[C@@]2(O)[C@@](C)(O)C1=O |  |  | SupT1 | luciferase | pseudotyped | 73.1 µM |
| O=c1[nH]cnc2c1ncn2[C@H]1CC[C@@H](CO)O1 | HXB2D |  | CBMC | RT activity |  | 1.9 µM |
| O=c1[nH]cnc2c1ncn2[C@H]1CC[C@@H](CO)O1 | RTMC (RT-V 75A) | RT-V75A | CD4+HELA + HeLa | plaque count |  | 4 µM |
| CC[C@H](C)[C@H](NC(=O)[C@H](Cc1ccccc1)NC[C@H](O)[C@H](Cc1ccccc1)NC(=O)[C@@H](NC(=O)[C@H](CC(C)C)NC(C)=O)C(C)C)C(=O)N[C@H](C(N)=O)C(C)C | TC354 |  | CBMC(PHA) + CBMC | RT activity | 4 d | >10 µM |
| C[C@@H](Cn1cnc2c(N)ncnc21)OCP(=O)(O)O | HE |  | MOLT4 + MOLT-4 | syncytia |  | 100 µM |
| Cc1cn([C@H]2C[C@H](N=[N+]=[N-])[C@@H](CO)O2)c(=O)[nH]c1=O |  |  | CEM + CEM TK- | cytopathic effect |  | >100 µM |
| O=c1c2ccccc2n2nnc3ccc(NCCCN4CCN(CCCNc5ccc6nnn7c8ccccc8c(=O)c5c67)CC4)c1c32 | AZT-resistant |  | PBL | p24 |  | 0.01 µM |
| Nc1ccn([C@H]2CC[C@@H](CO)O2)c(=O)n1 | IIIB |  | ATH8 | cytopathic effect / trypan blue |  | <0.2 µM |
| Cc1cn([C@H]2C[C@H](N=[N+]=[N-])[C@@H](CO)O2)c(=O)[nH]c1=O | 4205(RT-M184V) | RT-M184V | CBMC | RT activity |  | 0.007 µM |
| CO[P@](=O)(c1cc(C)cc(/C=C/C#N)c1)c1c(C(N)=O)[nH]c2ccc(Cl)c(F)c12 | BH10 |  | U-937 |  |  | 0.0006 µM |
| Cc1cn([C@H]2C[C@H](N=[N+]=[N-])[C@@H](CO)O2)c(=O)[nH]c1=O | AMR15 |  | MT-4 | cytopathic effect / trypan blue |  | 0.25 µM |
| COc1ccccc1-c1noc(=O)n1-c1cccc(C(F)(F)F)c1 | ADA R5 |  | MDM | RT activity |  | 0.05 µM |
| CC(C)[C@@H](C)/C=C/[C@@H](C)[C@H]1CCC2C3=C(CC[C@@]21C)[C@@]1(C)CC[C@H](O)CC1=CC3=O |  |  | SupT1 | luciferase | pseudotyped | 5.9 µM |
| Nc1ccn([C@H]2CC[C@@H](CO)O2)c(=O)n1 | HXB2 |  | HT4 + HT4 LacZ-1 |  |  | 0.38 µM |
| CC(=O)c1ccc(C)cc1NC(C(N)=O)c1c(Cl)cccc1Cl | IIIB | RT-T240I | MAGI | MTT |  | 0.22 µM |
| c1ccc2c(CN3CCCNCCNCCCNCC3)cc(CN3CCCNCCNCCCNCC3)cc2c1 | 168.10 |  | SupT1 + Sup-T1 | cytopathic effect / MTT |  | 0.24 µg/mL |
| COc1cc(/C=C/c2ccc3ccc(C(=O)O)c(O)c3n2)cc(O)c1O |  |  | HeLaP4 | β-galactosidase |  | 0.3 µM |
| C#C[C@]1(CO)O[C@@H](n2cnc3c(N)nc(F)nc32)CC1O | NL4-3 |  | MAGIC-5A | β-galactosidase / absorbance |  | 0.002 µM |
| O=C(Nc1cc(S(=O)(=O)O)cc2cc(S(=O)(=O)O)c(N=Nc3ccc(N=Nc4c(S(=O)(=O)O)cc5cc(S(=O)(=O)O)cc(NC(=O)c6cccc(Cl)c6Cl)c5c4O)cc3)c(O)c12)c1ccc(Cl)cc1Cl | IIIB |  | SupT1 + Sup-T1 | syncytia |  | 2.8 µg/mL |
| Cc1ccc(-n2c(SCC(=O)Nc3ccc(C)cc3Br)nnc2C(F)(F)F)cc1 |  |  | HeLa |  |  | 0.0004 µM |
| O=C(O)c1cc(O)cc(O)c1N=Nc1ccc(/C=C/c2ccc(N=Nc3c(O)cc(O)cc3C(=O)O)cc2S(=O)(=O)O)c(S(=O)(=O)O)c1 | IIIB |  | CEMx174 + CEM | cytopathic effect / XTT |  | 9 µg/mL |
| Cc1cn([C@H]2C[C@H](N=[N+]=[N-])[C@@H](CO)O2)c(=O)[nH]c1=O | BaL |  | HUT/CCR5 + HUT | p24 | 7 d | <0.5 µM |
| CC[C@H](C)[C@H](NC(=O)[C@@H]1CCCN1C[C@H](O)[C@H](Cc1ccccc1)NC(=O)[C@H](CC(N)=O)NC(=O)[C@H](CC(C)C)NC(C)=O)C(=O)N[C@H](C(N)=O)C(C)C | TC354 |  | CBMC(PHA) + CBMC | RT activity | 4 d | >10 µM |
| c1cc(CN2CCCNCCCNCCNCCC2)ccc1CN1CCCNCCCNCCNCCC1 | 168.10 |  | SupT1 + Sup-T1 | cytopathic effect / MTT |  | 0.04 µg/mL |
| Nc1nc(=O)n([C@H]2CO[C@@H](CO)S2)cc1F | HXB2D(RT-M184I) | RT-M184I | CBMC | RT activity |  | 3.5 µM |
| Oc1ccc(/C=C/c2cc(O)cc(O)c2)cc1 | IIIB |  | PBMC (resting) + PBMC | p24 |  | ~5 µM |
| Cn1c2ccccc2c2c3c(c4c5ccccc5n(CC(F)F)c4c21)CNC3=O |  |  | U1/HIV-1(TNFalpha) + U1 | p24 |  | 0.03 µM |
| Cc1ccnc2c1NC(=O)c1cccnc1N2C1CC1 | NNRTI-resistant (RT V106M) | RT-V106M | MAGI | β-galactosidase |  | 2.9 µM |
| Cc1cn([C@H]2C=C[C@@H](CO)O2)c(=O)[nH]c1=O |  |  | CEM + CEM TK- | cytopathic effect |  | 14 µM |
| C[C@H](Cn1cnc2c(N)ncnc21)OCP(=O)(O)O | LAI | E138A | TZM-bl |  |  | 8.7 µM |
| Cc1cn([C@H]2C=C[C@@H](CO)O2)c(=O)[nH]c1=O | NL4-3 |  | MAGIC-5A | β-galactosidase / absorbance |  | 0.8 µM |
| O=C(O)/C=C/c1ccc[c]([Sb](=[O])([OH])[OH])c1 | 92BR019 R5 clinical isolate |  | MAGI | β-galactosidase |  | <10 µM |
| C/C=C/C=C/C(=O)C1=C(C)C(=O)C(=O)C(C)=C1O |  |  | SupT1 | luciferase | pseudotyped | 4.7 µM |
| Nc1nc(NC2CC2)c2ncn([C@H]3C=C[C@@H](CO)C3)c2n1 | HXB2 |  | HeLa + HELA CD4+ | plaque count |  | 5.8 µM |
| Nc1ncnc2c1ncn2CCOCP(=O)(O)O | BaL |  | Macrophage + Monocytes/macrophages | p24 / syncytia |  | 0.02 µM |
| CC(C)C(C)/C=C/C(C)[C@H]1CCC2C3C[C@@H](O)[C@@]4(O)C[C@@H](O)CC[C@]4(C)C3CC[C@@]21C |  |  | SupT1 | luciferase | pseudotyped | 3.8 µM |
| Cc1cn([C@H]2C[C@H](N=[N+]=[N-])[C@@H](CO)O2)c(=O)[nH]c1=O | Primary clinical isolate Rome |  | PBMC/HIV-1 + PBMC | p24 |  | <3.7 µM |
| C[C@H]1/C=C/[C@@]2(C)CC[C@@H](C(C)(C)O)[C@@H]2[C@@H](O)C[C@](C)(O)/C=C/C1 | BAL R5 |  | Macrophage + Macrophages | p24 |  | 1.7 µM |
| CC(C)[C@@H](C)/C=C/[C@@H](C)C1CCC2=C3C(CC[C@@]21C(=O)O)[C@@]1(C)CC[C@H](OC(=O)[C@@H](N)[C@@H](OS(=O)(=O)O)C(C)C)C[C@@]12OC2[C@@H]3O |  |  | SupT1 | luciferase | pseudotyped | 1.9 µM |
| Nc1nc(=O)n([C@@H]2CS[C@H](CO)O2)cc1F | HXB2 |  | HT4 + HT4 LacZ-1 |  |  | 0.09 µM |
| C=CCn1c(=O)c(C)cn([C@@H]2O[C@H](CO[Si](C)(C)C(C)(C)C)C3(OS(=O)(=O)C=C3N)[C@H]2O[Si](C)(C)C(C)(C)C)c1=O | BaL |  | Monocytes/macrophages | p24 |  | 0.524 µM |
| c1cc(CCN2CCCNCCNCCCNCC2)ccc1CCN1CCCNCCNCCCNCC1 | 168.10 |  | SupT1 + Sup-T1 | cytopathic effect / MTT |  | 1.2 µg/mL |
| Cc1cn([C@H]2C[C@H](N=[N+]=[N-])[C@@H](COP(=O)(O)OCc3ccccc3)O2)c(=O)[nH]c1=O |  |  | CEM + CEM TK- |  |  | >100 µM |
| CC[C@H](C)C(=O)O[C@@H]1C(=O)[C@@]2(OC(=O)C(C)C)[C@@]3(O)C[C@@]1(C)[C@H](CC(=O)OC)[C@@]3(C)[C@H]1CC[C@@]3(C)[C@H](c4ccoc4)OC(=O)C[C@]34O[C@]142 |  |  | SupT1 | luciferase | pseudotyped | 17.45 µM |
| CC(C)=CCc1cc(-c2oc3cc(O)cc(O)c3c(=O)c2O)ccc1O |  |  | MOLT-4/OKM-1(HIV-1) + MOLT-4 | syncytia |  | <20 µg/mL |
| Nc1ncnc2c1ncn2CC(O)CCO | IIIB |  | ATH8 | cytopathic effect / trypan blue |  | >100 µM |

ECn is the concentration giving n% inhibition of infection, replication or growth. Rows are shuffled and stem from different studies.